Experimental data taken from patent publication US20050255083.

Test system: wild-type anthrax toxin protective antigen (PrAg)

urokinase plasminogen activator (uPA) was tested. Which “in vitro cleavage (SDS-PAGE, Western blot)” value did it give?
Its value is “Wild-type PrAg also showed a low degree of susceptibility to uPA”.
